Source: patent publication US20050064470A1, “High throughput screening methods for identifying RNA binding compounds” (priority 2003, published 2005)
pKd: −log10 of the molar value. Construct, isoform or probe ends are uncertain for at least one entry.

Tested on: alpha-TatR 3 (Tat 47-57 peptide)
Assay: FP
Details: 50 mM Tris-HCl pH 7.4, 20 mM KCl, 0.02% Tween20, room temp; synthetic protein; protein details: synthetic peptide; label: fluorescein

Question: With “GGCAGAUCUGAGCCUGGGAGCUCUCUGCC [wild-type TAR RNA]” as the sequence, how does the pKd read?
Answer: 8.74
